Pooled drug test results. Numbers come from NIAID ChemDB, via PubChem.

Shared fields: cytotoxicity tests; measure: CC50

CCn: concentration that lowers growth or viability of the cells by n%. Blank or dashed fields: not listed here. Neighbouring rows are from separate reports.

CS(=O)(=O)C1(c2ccc(C(=O)NC34CC(c5nc(-c6ccccc6)cs5)(C3)C4)o2)CC1 ; cell line: Primary human hepatocytes ; method: absorbance ; value: 12.38 µM
CCOC(=O)CCCCCOc1cccc(CN(C(=O)c2ccc(-c3cccc(Br)c3)cc2)C(C)C)c1 ; cell line: BJ ; value: >20 µM
COc1ccc(Nc2cccc3c(-c4ccnc(NC5CCCC5)n4)c(-c4ccc(F)cc4)nn23)cc1 ; cell line: VERO 76 ; value: >40 µM
Cc1nnc(C2CCC(n3c(NC(C)C)nc4c(c3=O)C[C@@H](C)N(C(=O)c3ccc(Cl)c(C(F)(F)F)c3)C4)CC2)o1 ; cell line: HepG2 ; method: luminescence ; value: >50 µM
C#CCNC(=O)C(=O)c1cc(C(=O)Nc2ccc(F)c(F)c2)n(C)c1 ; cell line: Human hepatocellular carcinoma (HepG2) ; method: absorbance ; value: >100 µM
CC(=O)OC(C(C)C(C)C(C)(C)OC(C)=O)C1OC12C(O)CC1C3CCC4CC(=O)CCC4C3CCC12CO ; cell line: HT-29 ; method: MTT ; value: >50 µg/mL
CCCCNc1cccc2c(-c3ccnc(NC4CCCC4)n3)c(-c3ccc(F)cc3)nn12 ; cell line: VERO 76 ; value: >40 µM
CNC(=O)c1cc(-n2c(NC(C)C)nc3c(c2=O)C[C@@H](C)N(C(=O)c2ccc(Cl)c(C(F)(F)F)c2)C3)ccn1 ; cell line: HepG2 ; method: luminescence ; value: >50 µM
Nc1nccc(-c2c(-c3ccc(F)cc3)nn3c(NC4CCCC4)cccc23)n1 ; cell line: VERO 76 ; value: >40 µM
CCOC(=O)COc1ccc(CNC(C)C)cc1 ; cell line: BJ ; value: >20 µM
COC(=O)[C@H](C)NP(=O)(OC[C@H]1C/C1=C/n1cnc2c(N)nc(N)nc21)Oc1ccccc1 ; cell line: MEF ; method: neutral red ; value: 211 µM
O=c1[nH]c(=S)n([C@@H]2O[C@H](CO)[C@@H](O)[C@@H]2O)cc1/C=C/Br ; cell line: RPMI8226 ; value: >213 µM
OCC1CCC(c2ccc3ncnc(Nc4ccc(C5CCOCC5)cc4)c3c2)O1 ; cell line: Huh7.5+J6/JFH-1 ; value: 29.3 µM
COc1cc2c(cc1OC)C1(CC=CCC1)N(C(C)=O)CC2 ; cell line: BJ ; value: <7.5 µM
CCCc1cn([C@H]2C[C@H](O)[C@@H](CO)O2)c(=S)[nH]c1=O ; cell line: RPMI8226 ; value: >277.6 µM
CS(=O)(=O)C1(c2ccc(C(=O)NC34CC(c5nc(-c6cccc(Cl)c6)cs5)(C3)C4)o2)CC1 ; cell line: Primary human hepatocytes ; method: absorbance ; value: 20.66 µM
CC[C@H](O)C1=C[C@@H](n2cnc3c(N)ncnc32)[C@H](O)[C@@H]1O ; cell line: P4 ; value: >206 µM
COc1ccc(OCc2ccc(COc3c(Cl)cccc3Cl)cc2)c(Cl)c1 ; cell line: BGMK ; value: >50 µg/mL
CCOC(=O)CC(=O)NCCc1ccc(OC)c(OC)c1 ; cell line: BJ ; value: <7.5 µM
Nc1nc2c(ncn2COC(CO)CO)c(=O)[nH]1 ; cell line: H-1 ; value: 75 µM
CC(=O)OCC(C)(O)C(C)C(C)C(OC(C)=O)C1OC12C(O)CC1C3CCC4CC(=O)CCC4C3CCC12COC(C)=O ; cell line: HT-29 ; method: MTT ; value: >50 µg/mL
Nc1ncnc2c1ncn2C=C1CC1CO ; cell line: MEF ; method: neutral red ; value: >460 µM
O=C(O)c1ccccn1 ; cell line: HFS ; method: visual reading ; conditions: 7 d ; value: >600 µM
Cc1cn([C@@H]2O[C@H](CO)[C@@H](F)[C@@H]2F)c(=O)nc1N ; cell line: HL-60 ; value: 234 µM
Nc1ncnc2c1ncn2[C@@H]1C[C@@](OCP(=O)(O)O)(C2CC2)[C@@H](O)[C@H]1O ; cell line: T4 ; method: XTT / absorbance ; value: >100 µM
CS(=O)(=O)C1(c2ncc(C(=O)NCCC3(c4ncc(-c5ccc(Cl)cc5)s4)CCC3)o2)CC1 ; cell line: Primary human hepatocytes ; method: absorbance ; value: 89 µM
CC1CNC(=O)c2ccccc2SSc2ccccc2C(=O)N1 ; cell line: HuT-78 ; method: MTT / microscopy ; value: >145 µM
Nc1nc(=S)n([C@@H]2O[C@H](CO)[C@@H](O)[C@@H]2O)cc1CO ; cell line: RPMI8226 ; value: >253.5 µM
Nc1nc2c(ncn2COCCO)c(=O)[nH]1 ; cell line: H-1 ; value: 1000 µM
CS(=O)(=O)C1(c2ccc(C(=O)NC34CC(c5csc(-c6ccc(Cl)cc6)n5)(C3)C4)o2)CC1 ; cell line: Primary human hepatocytes ; method: absorbance ; value: 39.46 µM
CCCC(=O)OCSc1c(F)cccc1C(=O)NCCC(N)=O ; cell line: CEM-SS ; method: XTT / absorbance ; value: >6 µM
CN(C)c1ccc(/C=C/C(=O)c2c(OB(F)F)cc(/C=C/c3ccc(N(C)C)cc3)oc2=O)cc1 ; cell line: HCT116 ; method: MTT ; value: >10 µM
O=C1Nc2ccc(Cl)cc2[C@@](C#CC2CC2)(C(F)(F)F)O1 ; cell line: Madin-Darby bovine kidney ; method: MTT / crystal violet ; value: >100 µg/mL
CCNC(=O)C1(F)CCC(n2c(NC(C)C)nc3c(c2=O)C[C@@H](C)N(C(=O)c2ccc(Cl)c(C(F)(F)F)c2)C3)CC1 ; cell line: HepG2 ; method: luminescence ; value: >50 µM
CC(O)c1cn([C@@H]2O[C@H](CO)[C@@H](O)[C@@H]2O)c(=S)[nH]c1=O ; cell line: RPMI8226 ; value: >263.5 µM
Cc1cn([C@@H]2O[C@H](COC(c3ccccc3)(c3ccccc3)c3ccccc3)[C@@H](F)[C@H]2F)c(=O)[nH]c1=O ; cell line: HL-60 ; value: >1000 µM
Cc1cn([C@H]2C[C@H](O)[C@@H](CO)O2)c(=S)nc1N ; cell line: RPMI8226 ; value: >300.8 µM
O=C(O)C1=CC(=C(c2ccc(O)c(C(=O)O)c2)c2ccc(O)c(C(=O)O)c2)C=CC1=O ; cell line: HuT-78 ; value: 13 µM
Cc1cn([C@@H]2O[C@H](CO)[C@@H](O)[C@@H]2F)c(=O)[nH]c1=O ; cell line: HL-60 ; value: >1000 µM
CS(=O)(=O)C1(c2nsc(C(=O)NC34CC(c5nc(-c6ccc(Cl)cc6)no5)(C3)C4)n2)CC1 ; cell line: Primary human hepatocytes ; method: absorbance ; value: 181.5 µM
C[C@H](O)C1=C[C@@H](n2cnc3c(N)ncnc32)[C@H](O)[C@@H]1O ; cell line: P4 ; value: >36 µM
CS(=O)(=O)C1(c2ccc(C(=O)NC34CC(c5nc(-c6ccccc6Cl)cs5)(C3)C4)o2)CC1 ; cell line: Primary human hepatocytes ; method: absorbance ; value: 8.85 µM
CNC(=O)N1CC2(CC(n3c(NC(C)C)nc4c(c3=O)C[C@@H](C)N(C(=O)c3ccc(Cl)c(C(F)(F)F)c3)C4)C2)C1 ; cell line: HepG2 ; method: luminescence ; value: >50 µM
Cc1cn(C2C[C@H](F)[C@@H](COP(=O)(N[C@@H](C)C(=O)OC(C)C)Oc3ccccc3)O2)c(=O)[nH]c1=O ; cell line: CEM/TK- ; method: cell count ; value: >250 µM
OC[C@H]1O[C@@H](n2cnc3c(CCSC4=NCCS4)ncnc32)[C@H](O)[C@@H]1O ; cell line: Huh7 (MT-4) ; value: >100 µM
Nc1nc(=S)n([C@@H]2O[C@H](CO)[C@@H](O)[C@@H]2O)cc1/C=C/Br ; cell line: RPMI8226 ; value: >258.7 µM
CCN(CC)C(=S)OCC1CN(C(=O)c2cc(OC)c(OC)c(OC)c2)CCN1C(=O)c1cc(OC)c(OC)c(OC)c1 ; cell line: MDM ; value: <10 µM
CNC(=O)[C@@H]1CC[C@@H](n2c(NC(C)C)nc3c(c2=O)C[C@@H](C)N(C(=O)c2ccc(Cl)c(C(F)(F)F)c2)C3)C1 ; cell line: HepG2 ; method: luminescence ; value: 34.4 µM
Nc1nc2c(ncn2COC2CCP(=O)([O-])OC2)c(=O)[nH]1 ; cell line: GPE ; value: 112 µg/mL
COc1ccc(/C=C/C(=O)c2c(O)cc(/C=C/c3ccc(N(C)C)cc3)oc2=O)cc1 ; cell line: HCT116 ; method: MTT ; value: >10 µM
CC1=CC(=C(c2ccc(N)c(S(=O)(=O)O)c2)c2ccc(N)c(S(=O)(=O)O)c2)C=C(S(=O)(=O)O)C1=N ; cell line: HuT-78 ; value: >625 µM
Nc1ncnc2c1ncn2/C=C1/C[C@@H]1CO ; cell line: MEF ; method: neutral red ; value: 296 µM
CNC(=O)c1ccc(-n2c(NC(C)C)nc3c(c2=O)C[C@@H](C)N(C(=O)c2ccc(C(F)F)c(Br)c2)C3)cc1 ; cell line: HepG2 ; method: luminescence ; value: >50 µM
C=C[C@@H](O)C1=C[C@@H](n2cnc3c(N)ncnc32)[C@H](O)[C@@H]1O ; cell line: P4 ; value: >208 µM
CCCCNc1nccc(-c2c(-c3ccc(F)cc3)nn3c(NCCCC)cccc23)n1 ; cell line: VERO 76 ; value: >160 µM
C=C[C@H](O)C1=C[C@@H](n2cnc3c(N)ncnc32)[C@H](O)[C@@H]1O ; cell line: P4 ; value: >208 µM
C[C@@H]1C[C@@H](O)[C@H]2C3=C(C[C@H](O)[C@@]2(O)C1)C(=O)c1c(O)cccc1C3=O ; cell line: NCI-H187 ; method: resazurin ; value: 4.5 µM
CCc1cn([C@@H]2C[C@H](F)[C@@H](CO)O2)c(=O)[nH]c1=O ; cell line: F5000 (human embryo) ; value: 500 µM
C=CCNc1cccc2c(-c3ccnc(NCCCC)n3)c(-c3ccc(F)cc3)nn12 ; cell line: VERO 76 ; value: >40 µM
COC(=O)[C@H](C)NP(=O)(OCC1C/C1=C/n1cnc2c(NC3CC3)nc(N)nc21)Oc1ccccc1 ; cell line: MEF ; method: neutral red ; value: 101 µM
CNC(=O)c1c(Br)c(-n2c(NC(C)C)nc3c(c2=O)C[C@@H](C)N(C(=O)c2ccc(Cl)c(C(F)(F)F)c2)C3)nn1C ; cell line: HepG2 ; method: luminescence ; value: >50 µM
OC[C@H]1O[C@@H](n2cnc3c(CCSC4CCCCC4)ncnc32)[C@H](O)[C@@H]1O ; cell line: Huh7 (MT-4) ; value: >100 µM
CC(C)N(Cc1cccc(OCCCCCC(=O)OC(=O)O)c1)C(=O)c1ccc(-c2cccc([N+](=O)[O-])c2)cc1 ; cell line: HEK 293 ; value: >20 µM
CC(C)(C)C(=O)SCCOP(=O)(CO[C@@]1(C2CC2)C[C@@H](n2cnc3c(N)ncnc32)[C@H](O)[C@@H]1O)OCCSC(=O)C(C)(C)C ; cell line: T4 ; method: XTT / absorbance ; value: 65 µM
C[C@@H]1[C@H](O)[C@@H](CO)O[C@H]1n1ccc(N)nc1=O ; cell line: VERO 76 ; method: MTT / crystal violet ; value: >100 µg/mL
CCOC(=O)CCCCCOc1cccc(CN(C(=O)c2ccc(-c3cccc(CC(=O)O)c3)cc2)C(C)C)c1 ; cell line: RAJI ; value: >20 µM
C[C@@H]1CC[C@H]2C3=C(C[C@H](O)[C@@]2(O)C1)C(=O)c1c(O)cccc1C3=O ; cell line: NCI-H187 ; method: resazurin ; value: 7.7 µM
Cc1cc(CCCOc2c(C)cc(-c3noc(C(F)(F)F)n3)cc2C)on1 ; cell line: VERO 76 ; method: MTT / crystal violet ; value: >100 µg/mL
CC(O)c1cn([C@@H]2O[C@H](CO)[C@@H](O)[C@@H]2O)c(=S)nc1N ; cell line: RPMI8226 ; value: >244.8 µM
C=C(C)C(O)CC/C(C)=C/[C@H]1C(=O)C(C)=C[C@@H]1O ; cell line: HOG.R5 ; value: 80 µM
Cc1cn2c(nc1=O)O[C@H]1C[C@@H](COC(c3ccccc3)(c3ccccc3)c3ccccc3)O[C@H]12 ; cell line: HL-60 ; value: >1000 µM
CC1=C[C@H](O)[C@@H](/C=C(\C)C/C=C/C(C)(C)O)C1=O ; cell line: HOG.R5 ; value: >80 µM
Nc1nc2c(ncn2COCCO)c(=O)[nH]1 ; cell line: Macrophages ; value: >20 µM
CCN(CC)c1nc2c(c(=O)n1C1CCC(C(=O)NC)CC1)C[C@@H](C)N(C(=O)c1ccc(Cl)c(C(F)(F)F)c1)C2 ; cell line: HepG2 ; method: luminescence ; value: 18.5 µM
Nc1ncnc2c1c(Br)cn2COCCO ; cell line: BSC-1 ; value: >100 µM
CCCCNc1nccc(-c2c(-c3ccc(F)cc3)nn3c(N4CCOCC4)cccc23)n1 ; cell line: VERO 76 ; value: >40 µM

Repeating the final 10 entries:

smiles | cell line | method | conditions | value
C[C@@H]1CC[C@H]2C3=C(C[C@H](O)[C@@]2(O)C1)C(=O)c1c(O)cccc1C3=O | NCI-H187 | resazurin |  | 7.7 µM
Cc1cc(CCCOc2c(C)cc(-c3noc(C(F)(F)F)n3)cc2C)on1 | VERO 76 | MTT / crystal violet |  | >100 µg/mL
CC(O)c1cn([C@@H]2O[C@H](CO)[C@@H](O)[C@@H]2O)c(=S)nc1N | RPMI8226 |  |  | >244.8 µM
C=C(C)C(O)CC/C(C)=C/[C@H]1C(=O)C(C)=C[C@@H]1O | HOG.R5 |  |  | 80 µM
Cc1cn2c(nc1=O)O[C@H]1C[C@@H](COC(c3ccccc3)(c3ccccc3)c3ccccc3)O[C@H]12 | HL-60 |  |  | >1000 µM
CC1=C[C@H](O)[C@@H](/C=C(\C)C/C=C/C(C)(C)O)C1=O | HOG.R5 |  |  | >80 µM
Nc1nc2c(ncn2COCCO)c(=O)[nH]1 | Macrophages |  |  | >20 µM
CCN(CC)c1nc2c(c(=O)n1C1CCC(C(=O)NC)CC1)C[C@@H](C)N(C(=O)c1ccc(Cl)c(C(F)(F)F)c1)C2 | HepG2 | luminescence |  | 18.5 µM
Nc1ncnc2c1c(Br)cn2COCCO | BSC-1 |  |  | >100 µM
CCCCNc1nccc(-c2c(-c3ccc(F)cc3)nn3c(N4CCOCC4)cccc23)n1 | VERO 76 |  |  | >40 µM